Anti-infective test results gathered from many reports (values: NIAID ChemDB through PubChem).

Common to all: growth or infection tests; agent: Mycobacterium bovis BCG

Lines come from different laboratories, so protocols vary. An empty or dashed field is not shown. MIC50, MIC90 and the like: level of inhibition, or share of isolates inhibited.

compound	strain	mutations	read by	endpoint	result
Fc1ccc2ncnc(NCCc3ccc(OC(F)(F)F)cc3)c2c1			luminescence	MIC50	>20 µM
CCCCCCCCCCCCCCCCC#CC(=O)O	mc22421			MIC99	10.6 µM
CC(C)(C)c1ccccc1OCCCON1C(N)=NC(N)=NC1(C)C			fluorescence	MIC	3.6 µM
C[C@H]1COC2(CCN(c3nc(=O)c4cc(C(F)(F)F)cc([N+](=O)[O-])c4s3)CC2)O1			fluorescence	MIC	0.009 µM
FC(F)(F)c1cccc(Oc2ncnc3ccccc23)c1			luminescence	MIC50	>20 µM
Nc1ccc(C(=O)O)c(O)c1		Thymidylate synthase (thyA) overexpressing	fluorescence	MIC	0.5 µM
NC(=O)NO			visual reading	MIC100	>380 µg/mL
O=c1[nH]c(=S)c(CO)cn1C1OC(CO)C(O)C1O			resazurin	MIC75	5 µg/mL
CCCCCCCCCCCCCCCC#CC(=O)OCC(O)CO	mc22421			MIC99	1.8 µM
FC(F)(F)Oc1ccc(CNc2ncnc3ccccc23)cc1			luminescence	MIC50	>20 µM
C#CCCCCCCCCCCCCC#CC(=O)O	mc22421			MIC99	1.2 µM
FC(F)(F)c1ccc(N2CCC3(CCN(c4ccc(Nc5ncnc6ccccc56)cc4)CC3)CC2)cc1			luminescence	MIC50	>50 µM
CCCCCCCCCCCCCC#CC(=O)OCCO	mc22421			MIC99	1 µM
CCc1cn2c(nc1=O)O[C@@H]1[C@H](F)[C@H]2O[C@@H]1CO			resazurin	MIC25	50 µg/mL
CCOC(=O)NC(=O)c1ccsc1NC(=O)c1nc2ccccc2s1			turbidity	MIC99	3 µg/mL
CCCCCCCCCCCCCCCCCC#CC(=O)O	mc22421			MIC99	10.1 µM
O=C(O)c1nc(NCCc2ccc(OC(F)(F)F)cc2)c2ccc(F)cc2n1			luminescence	MIC50	>20 µM
CCc1nc2ccc(Cl)cn2c1C(=O)NCc1ccc(N2CCC(c3ccc(OC(F)(F)F)cc3)CC2)cc1		bd oxidase complemented	broth dilution	MIC50	0.0029 µM
Fc1ccc2c(Nc3ccc(Oc4ccc(Cl)cc4)cc3)ncnc2c1			luminescence	MIC50	>50 µM
CCCCCCCCCCCCCCSCC#CC(=O)O	mc22421			MIC99	2.1 µM
CCOc1cccc(CCNc2ncnc3ccccc23)c1			luminescence	MIC50	>20 µM
O=C(C1CCN(c2nnc(-n3cccc3)s2)CC1)N1CCC(Cc2ccccc2)CC1	recG		fluorescence	MIC	1.6 µM
FC(F)(F)Oc1ccc(Nc2ncnc3ccsc23)cc1			luminescence	MIC50	>50 µM
CCCCCCCCCCCCCCCC#CC(=O)OCCO	mc22421			MIC99	1.9 µM

Repeating the final 3 entries:

| compound | strain | mutations | read by | endpoint | result |
|---|---|---|---|---|---|
| O=C(C1CCN(c2nnc(-n3cccc3)s2)CC1)N1CCC(Cc2ccccc2)CC1 | recG |  | fluorescence | MIC | 1.6 µM |
| FC(F)(F)Oc1ccc(Nc2ncnc3ccsc23)cc1 |  |  | luminescence | MIC50 | >50 µM |
| CCCCCCCCCCCCCCCC#CC(=O)OCCO | mc22421 |  |  | MIC99 | 1.9 µM |